Measured values from patent publication US20180214569A1 (Regeneron, published 2018).

Experiments:
[1] = molecular target: T1, wild type S. aureus Hemolysin A toxin (Staphylococcus aureus); experiment: cell-based or functional assay
[2] = molecular target: T2, mutant Hemolysin A (Hla-H35L) (Staphylococcus aureus); experiment: SPR (Biacore T200), mAb captured via anti-human Fc, toxin injected, 37 C
[3] = molecular target: T2, mutant Hemolysin A (Hla-H35L); experiment: SPR (Biacore T200), mAb captured via anti-human Fc, toxin injected, 25 C
[4] = molecular target: T1, wild type S. aureus Hemolysin A toxin

Binder	IC50 [M] for Hemolysin A neutralization (THP-1 cytotoxicity assay) [1]	Kd [2]	koff [2]	kon [2]	t1/2 [2]	Kd [3]	koff [3]	kon [3]	t1/2 [3]	Kd [4]	koff [4]	kon [4]	t1/2 [4]
H1H15408P (antibody, V domains shown) VH: EVQLVESGGGLVQPGGSLRLSCAASGFTFSRYDMSWVRQAPGKGLEWVSAISYSGDSTYYADSVQGRFTISRDNSKNTLYLQMNSLRAEDTALYHCAKDNGYSGTYYYYYGMDVWGQGTTVTVSS VL: DIQMTQSPSSLSASVGDRVTITCRASQGISNYLAWFQQKPGKAPKFLIYAASSLQSGVPSKFSGSGSGTDFTLTISSLQPEDFATYYCQQYNSYPYTFGQGTKLEIK	6.41e-09 M	6.68 nM	0.00293 s⁻¹	438000 M⁻¹ s⁻¹	4 min	2.03 nM	0.000705 s⁻¹	347000 M⁻¹ s⁻¹	16 min	7.62 nM	0.000832 s⁻¹	109000 M⁻¹ s⁻¹	14 min
H1H15378P (antibody, V domains shown) VH: EVQLVESGGGLVQPGGSLRLSCAASGFTFNNYEMNWVRQAPGKGLEWVSFISSSGSTIDYAVSVKGRFTISRDNAKNSLYLQMNSLRPGDTAVYYCARARLDFYYYGMDVWGQGTTVTVSS VL: DIQMTQSPSSLSASVGDRVTITCRASQGISNYLAWFQQKPGKAPKSLIYATSTLQSGVPSKFSGSGSGTDFTLTISSLQPEDFATYYCQQYNSFPLTFGGGTKVEIK	1.07e-08 M	17.8 nM	0.0168 s⁻¹	943000 M⁻¹ s⁻¹	0.7 min	8.89 nM	0.00681 s⁻¹	766000 M⁻¹ s⁻¹	1.7 min	26.2 nM	0.00788 s⁻¹	301000 M⁻¹ s⁻¹	1.5 min
H1H15375P (antibody, V domains shown) VH: QVQLVESGGGGVQPGRSLRLSCEASGFTFSDYGMQWVRQAPGKGLEWVAVIWDDGRKKYYADSVKGRFTVSRDNSKNTLYLEINSLRVEDTAVYYCAREGSSSSGRYFLYGMDVWGQGTTVTVSS VL: DIQMTQSPSSLSASVGDRVTITCRASQRISSYLNWYQQKLGKAPKLLISVASSLQSGVPSRFSGSGSGTDFTLTISSLQPEDFGIYYCQQSYNTPPWTFGQGTKVEIK	3.96e-09 M	1.19 nM	0.00037 s⁻¹	311000 M⁻¹ s⁻¹	31 min	0.665 nM	0.000117 s⁻¹	176000 M⁻¹ s⁻¹	99 min	2.12 nM	0.000127 s⁻¹	60000 M⁻¹ s⁻¹	91 min
H1H15418P2 (antibody, V domains shown) VH: QVQLVESGGGLVRPGGSLRLSCEASGFTFNEHYMSWIRQAPGKGLEWVAFISSGGSIIYYADSVKGRFTISRDSAKNSLYLQMNSLRPEDTAIYYCAREPFGGIIVFDYWGQGTLVTVSS VL: not shown	2.47e-09 M	0.403 nM	0.000229 s⁻¹	568000 M⁻¹ s⁻¹	51 min	0.188 nM	7.43e-05 s⁻¹	396000 M⁻¹ s⁻¹	155 min	0.849 nM	0.000102 s⁻¹	120000 M⁻¹ s⁻¹	113 min
H1H15405P (antibody, V domains shown) VH: EVQLVESGGGLVQPGGSLRLSCGASGFTFSYYWMTWVRQAPGKGLEWVANINQDGSEKFYVDSVRGRFTISRDNAKKSLYLQMNSLRAEDTAVYYCARDGYCSSIGCYNLYGMDVWGQGTTVTVSS VL: DIQMTQSPSSLSASVGDRVTITCRASQNINKYLNWYQQKPGQAPKLLIYTTSSLQSGVPSRFSGSGSGTDFTLTISSLQPEDFATYSCQQSYNSPLTFGGGTKVEIK	5.37e-09 M	0.354 nM	0.000152 s⁻¹	430000 M⁻¹ s⁻¹	76 min	0.237 nM	5.82e-05 s⁻¹	246000 M⁻¹ s⁻¹	199 min	0.862 nM	6.69e-05 s⁻¹	77600 M⁻¹ s⁻¹	173 min
H1H15381P (antibody, V domains shown) VH: EVQLVESGGGLVQPGGSLRLSCAASGFTFSRYDMHWVRQVTGKGLEWVSVIGTAGDTYYPDSVKGRFTISRENAKNSLSLQMNSLRAGDTAVYYCTRSYNWNFPFGYWGQGTLVTVSS VL: DIQMTQSPSTLSASVGDRVTITCRASQSISSWLAWYQQKPGKAPRLLIYEASSLETGVPSRFSGSGSGTEFTLTISSLQPDDFATYYCQQYNRYPWTFGQGTKVEIK	4.21e-09 M	1.9 nM	0.00466 s⁻¹	2.45e+06 M⁻¹ s⁻¹	2.5 min	0.54 nM	0.00122 s⁻¹	2.26e+06 M⁻¹ s⁻¹	9 min				
H1H15380P (antibody, V domains shown) VH: QVQLQESGPGLVKPSETLSLMCTVSGGSINNYYWSWIRQPPGKGLEWIGYIYNGGITKYNPSLKSRVTISVDTSKSQISLKLNSVTAADTAFYYCTKEQLERREGHIWFDPWGQGTLVTVSS VL: DIQMTQSPSSLSASVGDRVTITCRASQTINNYLNWYHQKPGKAPKLLIYGTSSLQSGVPSRFSGSGSGTEFALTISSLQPEDFATYYCQQSSSTPYTFGQGTKLEIK	7.84e-09 M	0.695 nM	0.00131 s⁻¹	1.88e+06 M⁻¹ s⁻¹	9 min	0.279 nM	0.000387 s⁻¹	1.39e+06 M⁻¹ s⁻¹	30 min				
H1H15410P (antibody, V domains shown) VH: QVQLQESGPGLVKPSETLSLTCTVSGGSISGYFWGWVRQPPGKGLEWIGYIFYSGSTNYNPSLKSRITLSVDTSKNQFSLKLSSVTAADTAIYYCARHREYYGSGNYRYYALDVWGQGTTVTVSS VL: AIQMTQSPSSLSASVGDRVTITCRASQGIRDDLGWYQQKPGKAPKLLIYAASSLQSGVPSRFSGSGSGTDFTLTISSLQPEDFATYYCLQDYNFPLTFGQGTKVEIK	5.89e-09 M	9.72 nM	0.00219 s⁻¹	226000 M⁻¹ s⁻¹	5 min	2.63 nM	0.000399 s⁻¹	152000 M⁻¹ s⁻¹	29 min	8.22 nM	0.000462 s⁻¹	56200 M⁻¹ s⁻¹	25 min
H1H15404P (antibody, V domains shown) VH: QVQLQESGPGLVKPSETLSLTCTVSGGSISGYFWGWIRQTPGKGLEWIGYIFYSGSTHYNPSFKSRVTMSVDTSKNQFALKLRSVTAADTAKYYCSRQREYYGSGNYRYFGMDVWGQGTTVTVSS VL: AIQMTQSPSSLSASVGERVTITCRASQDIRDDLGWYQQRPGKAPNLLIYAASSLHSGVPSRFSGSGSGTDFTLTISSLQPEDFATYYCLQDYNYPWTFGQGTKVEIK	6.31e-09 M	5.41 nM	0.00181 s⁻¹	335000 M⁻¹ s⁻¹	6 min	1.1 nM	0.000294 s⁻¹	268000 M⁻¹ s⁻¹	39 min				
H1H15399P (antibody, V domains shown) VH: EVQLVESGGGLVQPGGSLRLSCAASGFTFSSSAMSWVRQAPGKGLEWVSTLNVGADSTFYAGSVRGRFTISRDNSKNTLFLQMNSLRAEDTAVYYCAKDWGGIPYYYYYYGMDVWGQGTTVTVSS VL: DIQLTQSPSFLSASVGDRVTITCWASQGISSYLAWYQQKPGKAPNLLIYTASTLQSGVPSRFSGSGSGTEFTLTISSLQPEDFATYYCQQLNSYPLTFGGGTKVEIK	1.31e-09 M	0.196 nM	0.000278 s⁻¹	1.42e+06 M⁻¹ s⁻¹	42 min	0.1 nM	0.0001 s⁻¹	998000 M⁻¹ s⁻¹	116 min				
H1H15414P (antibody, V domains shown) VH: EVQLVESGGDLVQPGGSLRLSCAASGFTFSSFEMNWVRQAPGKGLEWVSYISSSGSTIYYADSVKDRFTVSRDKDKNSLYLQMNSLRAEDTAVYYCARGSWNQPYFDYWGQGTLVTVSS VL: DIQMTQSPSTLSASVGDRVTITCRASQSISSWLAWYQLKPGKAPKVLIYKASSLESGVPSRFSGSGSGTEFTLTINSLQPDDFATYYCQQYNSWTFGQGTKVEIK	1.72e-09 M									0.318 nM	0.000115 s⁻¹	362000 M⁻¹ s⁻¹	100 min
H1H15376P (antibody, V domains shown) VH: QVQLQQSGPGLVKPSQTLSLTCAISGDSVASNNAAWNWIRQSPSRGLEWLGRTYYRSKWFNDYVESVKSRISFNPDTSKNQFSLQLNSVTPEDTAVYYCARSYYDFWSGYSENNYYFYGMDVWGQGTTVTVSS VL: DIQMTQSPSSLSASVGDRVSITCRTSQGIRNDLGWYQQKPGKAPKRLIYAASSLQSGVPSRFSGSGSGTEFTLTISSLQPEDFATYYCLQHNIYPPTFGQGTKVEIK	7.45e-09 M	9.32 nM	0.00441 s⁻¹	473000 M⁻¹ s⁻¹	2.6 min	3.43 nM	0.00145 s⁻¹	422000 M⁻¹ s⁻¹	8 min	16.4 nM	0.00218 s⁻¹	133000 M⁻¹ s⁻¹	5 min
H1H15420P2 (antibody, V domains shown) VH: QVQLQESGLGLVKPSETLSLTCTVSGDSIGTYYWSWIRQPPGKGLEWIAYIYDSRHSNSNPSLKSRVTTSVDMSKNQFSLQLKSVTAADTAVYFCARDWGTWKPEGAFDIWGQGTMVTVSS VL: not shown	4.14e-09 M	0.0747 nM	0.000266 s⁻¹	3.56e+06 M⁻¹ s⁻¹	43 min	0.0523 nM	0.000119 s⁻¹	2.28e+06 M⁻¹ s⁻¹	97 min	0.171 nM	0.000131 s⁻¹	767000 M⁻¹ s⁻¹	88 min
H1H15377P (antibody, V domains shown) VH: EVQLVESGGGLVQPGGSLRLSCAASGFTFTSYEMNWVRQAPGKGLEWISYISSGGDTKYYADSVRGRFTISRDNAKNSLYLQMNSLRAEDTALYYCARDVLNWVFDYWGRGTLVTVSS VL: DIQMTQSPSSLSASVGDRVTITCRASQSIGKYLNWYRQSPGKAPKLLIYATSSLQSGVPSSFSGSGSGTDFTLTISSLQPEDFATYYCQQGFRTPFTFGPGTKVDIK	1.76e-09 M	0.864 nM	0.00137 s⁻¹	1.59e+06 M⁻¹ s⁻¹	8 min	0.367 nM	0.000411 s⁻¹	1.12e+06 M⁻¹ s⁻¹	28 min	1.02 nM	0.000315 s⁻¹	309000 M⁻¹ s⁻¹	37 min
